The supplement of paper PMC9931576
Human monoclonal antibodies against the spike receptor-binding domain (heavy:light variable regions). IC50 against pseudoviruses bearing the spike of naturally observed variants; lower = stronger; >10 µg/ml means not reached at the top dose. No active / inactive call. The stated detection limit is 0.0005 µg/ml; values near or below 0.001 µg/ml lie at the floor of the assay.

B1: BD56-1633 (protein)
chain 1: QVQLVESGGGVVQPGRSLRLSCTPSGFTFRTYGFHWVRQAPGKGLEWVAVISYDGDKKYYAESVKGRFTISRDKSKNTLNLQMNSLRTEDTAIYYCAKAHGPYCGGTNCYSQPADYWGRGTLVTVSS
chain 2: SYVLTQPPSVSVAPGKTARITCGGDNIGGDSVHWYQQRPGQAPVLVIYFNTDRPSGIPERFSGSISGNTATLTISRVEAGDEADYYCQVWDSSRDQGVFGTGTKVTVL
B2: BD56-1635 (protein)
chain 1: EVQLVESGGGLVKPGGSLRLSCAASGFTFSTYSMNWVRQAPGKGLEWVSSISRGSVDIYYEDSVKGRFTISRDNAKNSLFLQMNSLRAEDTAVYYCARKLRGYSYGYDVWGQGTQVTVSS
chain 2: DIQMTQSPSSLSASVGDRVSITCQASQDINNYLNWYQQKPGKAPKLLIYDAFNLQTGVPSRFSGSGSGTDFTFTISSLQPEDIATYYCQVYDTFGQGTKLEIK
B3: BD56-1640 (protein)
chain 1: QVQLVESGGGVVRPGRSLRLSCAASGFTFTNYGMHWVRQAPGKGLEWVAVIWYDGSNKDYADSVKGRFTISRDNSKNTLYLQMNSLRAEDTAMYYCAKPIYSYASGSYPDYWGQGTLVTVSS
chain 2: DIQMTQSPSSLSASVGDRVTITCQASQDIGNYLNWYQQRPGKAPKLLIYDASNLETGVPSRFSGSGSGTDFTFTISSLQPEDIATYYCQQYDNQYDNLSWTFGPGTKVEIK
B4: BD56-1642 (protein)
chain 1: QVQLVESGGGVVQPGRSLRLSCAASGFTFSSYVMYWVRQAPGKGLEWVALISYDGRNKYHADSVKGRFTISRDNSKNTQYLQMNSLRADDTAVYYCAREFDVDSGMVNNDAYGVDVWGQGTTVTVSS
chain 2: DIQMTQSPSSLSASVGDRVTITCRASQTISIYLNWYQQKPGKAPKLLIYTAFSLQRGVPSRFSGSGSGTEFSLTISSLHPEDFATYYCQQSYSIPPLTFGGGTKVEIK
B5: COV2-2499 (protein)
chain 1: QLQLQESGPGLVKPSETLSLTCTVSGGSVSSRSYYWGWIRQPPGKGLEWIGSIYYSGSTYYNPSLKSRVTISVDTSKNQFSLKLSSVTAADTAVYYCARHTVDCGGDCFPNDAFDIWGQGTMVTVSS
chain 2: SSELTQDPAVSVALGQTVRITCQGDSLRSYYASWYQQKPGQAPLLVIYGKNNRPSGIPDRFSGSSSGNTPSLTITGAQAEDEADYYCNFRDSSGHHPVFGEGTKLTVL
B6: BD56-1643 (protein)
chain 1: EVQLVESGGGLVQPGRSLRLSCAASGFTFGDHAMHWVRQAPGKGLEWVSGISWNSGGIDYADSVKGRFTISRDNSKSSLYLQMNSLRAEDTAFYYCARDSFAEQQLLYGLDVWGQGTTVTVSS
chain 2: DIQMTQSPSSLSASVGDRVTITCRASQTISTYLNWYQQKPGKAPKLLIYAASNLQSGVPSRFSGSGSGTDFTLTISSLQPEDFATYYCQQSYSTPGTFGGGTKVEIK

Experiments:
Experiment in all cases: pseudovirus neutralization IC50; higher = weaker neutralization
[1] = target: SARS-CoV-2 Omicron BA.1 spike pseudovirus
Protocol: (§1)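 Single-round VSV luciferase pseudovirus mixed with antibody dilutions for 1 h and put on Huh-7 cells for about a day; IC50 from the dose curve.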

[2] = target: SARS-CoV-2 Omicron BA.2 spike pseudovirus
Protocol: as §1

[3] = target: SARS-CoV-2 Omicron BA.2.75 spike pseudovirus
Protocol: as §1

[4] = target: SARS-CoV-2 Omicron BA.5 spike pseudovirus
Protocol: as §1

[5] = target: SARS-CoV-2 Omicron BQ.1.1 spike pseudovirus
Protocol: as §1

[6] = target: SARS-CoV-2 Omicron XBB spike pseudovirus
Protocol: as §1

[7] = target: SARS-CoV-2 early D614G spike pseudovirus
Protocol: as §1

Binder	pseudovirus neutralization IC50 [1] [µg/mL]	pseudovirus neutralization IC50 [2] [µg/mL]	pseudovirus neutralization IC50 [3] [µg/mL]	pseudovirus neutralization IC50 [4] [µg/mL]	pseudovirus neutralization IC50 [5] [µg/mL]	pseudovirus neutralization IC50 [6] [µg/mL]	pseudovirus neutralization IC50 [7] [µg/mL]
B1	> 10	> 10	> 10	> 10	> 10	> 10	> 10
B2	> 10	> 10	> 10	> 10	> 10	> 10	> 10
B3	> 10	> 10	> 10	> 10	> 10	> 10	> 10
B4	> 10	> 10	> 10	> 10	> 10	> 10	> 10
B5	> 10	> 10	> 10	> 10	> 10	> 10	0.0024
B6	> 10	> 10	> 10	> 10	> 10	> 10	3.92
